Protein sequences, listed by entry. Tags and fused reporters are not part of them. Lines headed by an entry give the natural chain unless they say otherwise; changes in a name come on top.
UniProt Q9KT38: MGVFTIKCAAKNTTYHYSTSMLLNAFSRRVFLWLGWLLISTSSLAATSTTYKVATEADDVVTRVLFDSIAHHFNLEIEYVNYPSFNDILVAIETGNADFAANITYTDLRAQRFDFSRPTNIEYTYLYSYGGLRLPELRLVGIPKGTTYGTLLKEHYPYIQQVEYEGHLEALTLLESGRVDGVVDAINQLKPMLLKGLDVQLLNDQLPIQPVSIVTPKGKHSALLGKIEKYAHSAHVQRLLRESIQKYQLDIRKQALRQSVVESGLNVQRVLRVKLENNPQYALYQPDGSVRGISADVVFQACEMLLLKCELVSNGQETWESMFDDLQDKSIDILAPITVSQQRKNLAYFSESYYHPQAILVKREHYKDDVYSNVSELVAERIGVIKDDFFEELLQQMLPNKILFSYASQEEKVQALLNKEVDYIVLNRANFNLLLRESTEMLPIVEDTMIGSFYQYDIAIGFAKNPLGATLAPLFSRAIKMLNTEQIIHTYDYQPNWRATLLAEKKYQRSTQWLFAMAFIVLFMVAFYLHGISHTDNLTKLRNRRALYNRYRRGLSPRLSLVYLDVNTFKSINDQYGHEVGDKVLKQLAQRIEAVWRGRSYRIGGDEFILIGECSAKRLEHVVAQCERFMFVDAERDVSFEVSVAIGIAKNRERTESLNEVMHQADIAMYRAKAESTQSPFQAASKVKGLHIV

According to publication PMC5431781, “Structural studies of the periplasmic portion of the diguanylate cyclase CdgH from Vibrio cholerae” (Scientific Reports, 2017):

Columns and labels:
[1] = molecular target: PBPb-I^E56A (Vibrio cholerae, UniProt Q9KT38, E56A); assay: ITC, amino acids vs PBPb-I E56A mutant; settings: 20 mM Tris pH 8.0, 150 mM NaCl, 25 °C, refolded protein
[2] = molecular target: PBPb-I^R109A (Vibrio cholerae, UniProt Q9KT38, R109A); assay: ITC, amino acids vs PBPb-I R109A mutant; settings: 20 mM Tris pH 8.0, 150 mM NaCl, 25 °C, refolded protein
[3] = molecular target: PBPb-I^E122A (Vibrio cholerae, UniProt Q9KT38, E122A); assay: ITC, amino acids vs PBPb-I E122A mutant; settings: 20 mM Tris pH 8.0, 150 mM NaCl, 25 °C, refolded protein
[4] = molecular target: PBPb-I^E56A/R109A/E122A/PBPb-II (Vibrio cholerae, UniProt Q9KT38, E122A/E56A/R109A); assay: ITC, amino acids vs tandem PBPb domains with triple-mutated PBPb-I (probes PBPb-II); settings: ITC (iTC200), 20 mM Tris pH 8.0, 150 mM NaCl, 25 °C; protein purified without refolding

Substance: L-ornithine
- Ka [1]: 41100 ± 8020 M⁻¹
- ΔH [1]: -6.08 ± 0.55 kcal/mol
- Ka [2]: 653 ± 117 M⁻¹
- Kd [2]: 1530 µM
- ΔH [2]: -5.09 ± 0.75 kcal/mol
- Ka [3]: 441 ± 98 M⁻¹
- Kd [3]: 2270 µM
- ΔH [3]: -9.74 ± 1.88 kcal/mol
- Ka [4]: 314 ± 40 M⁻¹
- Kd [4]: 3180 µM
- ΔH [4]: -2.35 ± 0.22 kcal/mol
